Measurements reported in PubChem BioAssay AID1224833 (University of Georgia, 2016)
Test: 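Host factors restraining rotavirus as candidate antiviral genes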 (primary screen). System: monkey MA104 kidney cells. Reagents: siRNA pool against human genes, 50 nM. Time to read-out: 48 h knock-down before infection; read 24 h after infection. Treatment: infection with rotavirus strain RV3 two days after transfection; infectious dose for this stage not given. Read-out: 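z-score of rotavirus antigen signal per well, from a fluorescent immunoassay, relative to non-targeting control wells on the same plate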. Reading the numbers: z-score vs non-targeting control: higher = more rotavirus replication than with non-targeting control. Call rule: In these data the active calls have z-score vs non-targeting control at about -1 or lower, or at about 1 or higher. Calls: active = z-score beyond 1 either way; inactive = z-score within 1 of zero.
In all, the deposit lists about 12,000 reagents; below is an unselected part. About 5,600 of all reagents (46%) count as active. 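Active calls cover z-scores past 1 in both directions, so they include lowered as well as raised rotavirus replication.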

CDYL (GeneID 9425): z-score vs non-targeting control = 1.83; Outcome = active
SLC35G2 (GeneID 80723): z-score vs non-targeting control = -2.63; Outcome = active
APOBEC3H (GeneID 164668): z-score vs non-targeting control = -0.321; Outcome = inactive
ZSCAN32 (GeneID 54925): z-score vs non-targeting control = -0.34; Outcome = inactive
C12orf42 (GeneID 374470): z-score vs non-targeting control = 0.892; Outcome = inactive
GAS2L1 (GeneID 10634): z-score vs non-targeting control = -0.623; Outcome = inactive
SLC6A14 (GeneID 11254): z-score vs non-targeting control = -0.648; Outcome = inactive
CFAP100 (GeneID 348807): z-score vs non-targeting control = -1.25; Outcome = active
STAR (GeneID 6770): z-score vs non-targeting control = 1.14; Outcome = active

Hits, of those listed so far:
CDYL (GeneID 9425): z-score vs non-targeting control = 1.83; Outcome = active
SLC35G2 (GeneID 80723): z-score vs non-targeting control = -2.63; Outcome = active
CFAP100 (GeneID 348807): z-score vs non-targeting control = -1.25; Outcome = active
STAR (GeneID 6770): z-score vs non-targeting control = 1.14; Outcome = active

More reagents follow:
AKIRIN2 (GeneID 55122): z-score vs non-targeting control = -1.16; Outcome = active
CCNT2 (GeneID 905): z-score vs non-targeting control = -1.48; Outcome = active
ACOT11 (GeneID 26027): z-score vs non-targeting control = 0.934; Outcome = inactive
PTCHD3 (GeneID 374308): z-score vs non-targeting control = -1.55; Outcome = active
RARB (GeneID 5915): z-score vs non-targeting control = -1.38; Outcome = active
FNDC11 (GeneID 79025): z-score vs non-targeting control = 1.77; Outcome = active
PSCA (GeneID 8000): z-score vs non-targeting control = -0.521; Outcome = inactive
DNAJC21 (GeneID 134218): z-score vs non-targeting control = -2.2; Outcome = active
POSTN (GeneID 10631): z-score vs non-targeting control = -2.32; Outcome = active
MYOD1 (GeneID 4654): z-score vs non-targeting control = -0.962; Outcome = inactive
